Source: ChEMBL document CHEMBL5500399, “Design, Synthesis, and Biological Evaluation of 1,2,4-Oxadiazole Derivatives Containing an Aryl Carboxylic Acid Moiety as Potent Sarbecovirus Papain-like Protease Inhibitors” (J Med Chem, 2024)
Calls of active or inactive are those of the source. The rule behind the calls is not given here.

Target: Replicase polyprotein 1ab (Severe acute respiratory syndrome coronavirus 2) (UniProt P0DTD1)
Assay: Inhibition of SARS-CoV2 PLpro cleavage activity using 2Ub-K48 as substrate incubated overnight by SYPRO Ruby staining based SDS-PAGE analysis

Cc1ccc(N)cc1C(=O)N[C@H](C)c1cccc2ccccc12
inhibition: Active
